From article PMC9321280 (Nature Communications, 2022)

Target: Paeniclostridium sordellii hemorrhagic toxin (TcsH), recombinant, His-tagged (Paeniclostridium sordellii, UniProt M9ZTT7 1-2618)

B1: Fc-tagged TMPRSS2^106-492/R255Q (ectodomain of human TMPRSS2 with R255Q) (Fc fusion)
chain: WKFMGSKCSNSGIECDSSGTCINPSNWCDGVSHCPGGEDENRCVRLYGPNFILQVYSSQRKSWHPVCQDDWNENYGRAACRDMGYKNNFYSSQGIVDDSGSTSFMKLNTSAGNVDIYKKLYHSDACSSKAVVSLRCIACGVNLNSSRQSQIVGGESALPGAWPWQVSLHVQNVHVCGGSIITPEWIVTAAHCVEKPLNNPWHWTAFAGILRQSFMFYGAGYQVEKVISHPNYDSKTKNNDIALMKLQKPLTFNDLVKPVCLPNPGMMLQPEQLCWISGWGATEEKGKTSEVLNAAKVLLIETQRCNSRYVYDNLITPAMICAGFLQGNVDSCQGDSGGPLVTSKNNIWWLIGDTSWGSGCAKAYRPGVYGNVMVFTDWIYRQMRADG
In the case of B1, the Kd is reported as ~0.13 nM.
